{
  "source": "paper PMC8262862",
  "molecular_target": "H4 HA",
  "assay": "ELISA",
  "data": [
    {"substance": "FI6v3", "values": [
      {"measurement": "Kd", "result": 0.61, "unit": "nM"}
    ]}
  ]
}
